Compound potency records, mixed from different reports. Data source: NIAID ChemDB in PubChem.

Shared fields: whole-cell or culture tests; agent: HIV-1

ECn: concentration that inhibits the pathogen or its effect by n%. Lines come from different laboratories, so protocols vary. An empty or dashed field is not shown.

compound	read by	changes	strain or isolate	conditions	cells	endpoint	value
Cc1cc(C(Cl)c2ccc(C(C)(C)C)cc2)nc(Nc2ccc(C#N)cc2)n1	cytopathic effect	K103N + Y181C	IIIB		MT-4	EC50	31.9 µM
CCOc1ccccc1N1CCN(c2ccc3c(=O)c(C(=O)O)cn(-c4ccc(Cn5cncn5)cc4)c3c2)CC1	syncytia				PBL	EC50	0.3 µM
Cc1ccc(C(Br)c2ccnc(Nc3ccc(C#N)cc3)n2)cc1	cytopathic effect	K103N + Y181C	IIIB		MT-4	EC50	31.5 µM
COc1cc(-c2ccc(Nc3ccccc3C(=O)O)c(OC)c2)ccc1Nc1ccccc1C(=O)O	RT activity		BaL		PBMC	EC90	10.7 µM
Cc1noc(C)c1C(=O)NC(C)(C)C(=O)NC[C@H](O)[C@@]12CC[C@]3(C)[C@H](CC[C@@H]4[C@@]5(C)CC[C@H](OC(=O)[C@H]6C[C@@H](C(=O)O)C6(C)C)C(C)(C)[C@@H]5CC[C@]43C)C1=C(C(C)C)C(=O)C2	p24 / ELISA		92HT599		MT-2	EC50	<1 µM
COc1ccc([C@H]2c3ccccc3S(=O)(=O)N2C)cc1	cytopathic effect / XTT		RF		CEM + CEM-SS	EC50	>200 µM
S=C(NCCc1ccccc1Cl)Nc1ccc(Br)cn1	p24		IIIB		PBMC	EC50	<0.001 µM
CC(C)=CCC[C@@H](C)[C@@H]1[C@H](O)C/C(C)=C/C/C=C(/C=O)[C@H]1C=O	luciferase			pseudotyped	293T	EC50	>30 µM
Cc1cn(-c2ccc(C(=O)NCC[C@@]34CC[C@]5(C)[C@H](CC[C@@H]6[C@@]7(C)CC[C@H](OC(=O)[C@H]8C[C@@H](C(=O)O)C8(C)C)C(C)(C)[C@@H]7CC[C@]65C)C3=C(C(C)C)C(=O)C4)cc2)cn1	p24 / ELISA		92HT599		MT-2	EC50	<1 µM
Nc1ncnc2c1ncn2[C@@H]1OC[C@H](CCP(=O)(O)O)C12CC2	RT activity		LAV-1		PBMC	EC50	49.2 µM
Cc1cn([C@H]2C[C@H](N=[N+]=[N-])[C@@H](CO)O2)c(=O)[nH]c1=O	MTT		IIIB		MT-4	EC50	0.01822 µM
C[C@H]1[C@H](O)[C@@H](C)/C=C/C=C/C=C/C=C/C=C/C=C/C=C/[C@H](O[C@@H]2O[C@H](C)[C@@H](O)[C@H](N)[C@@H]2O)C[C@@H]2O[C@](O)(C[C@@H](O)C[C@@H](O)CC[C@H](O)[C@@H](O)C[C@@H](O)CC(=O)O[C@H]1C)C[C@H](O)[C@H]2C(=O)O	p24 / RT activity		93TH073 CLADE E R5 (NSI)		PBMC	EC50	5.5 µM
Cc1cccc(C(=O)OCc2nc3ccccc3nc2C)c1O	RT activity		89BZ167		PBMC	EC90	>100 µM
Cc1c(C2(c3c(F)cccc3F)CC2)nc(SC(C)C)[nH]c1=O	MTT		NL4-3		MT-4	EC50	0.01 µM
O=C(O)c1cn(-c2ccc(Cn3cncn3)cc2)c2cc(N3CCN(c4cccc5ccccc45)CC3)ccc2c1=O	syncytia				PBL	EC50	0.7 µM
CC(C)C1=C2[C@H]3CC[C@@H]4[C@@]5(C)CC[C@H](OC(=O)[C@H]6C[C@@H](C(=O)O)C6(C)C)C(C)(C)[C@@H]5CC[C@@]4(C)[C@]3(C)CC[C@@]2([C@@H](O)CNCc2ccc(CN3CCOCC3)cc2)CC1=O	p24 / ELISA		92HT599		MT-2	EC50	<1 µM
CC(C)=CCC[C@@H](C)[C@H]1C2=C(C(=O)OC2)[C@H]2C[C@H]2[C@H](C)C[C@H]1O	luciferase			pseudotyped	293T	EC50	>30 µM
CC(C)CN(C[C@@H](O)[C@H](Cc1ccccc1)NC(=O)O[C@H]1CO[C@@H]2OCC[C@@H]21)S(=O)(=O)c1ccc2c(C=NCC3N=CC=N3)c(O)[nH]c2c1	MTT					EC50	>0.4 µM
COc1ccc(C(Cl)c2ccnc(Nc3ccc(C#N)cc3)n2)cc1	cytopathic effect	K103N + Y181C	IIIB		MT-4	EC50	33.6 µM
Cc1cc(S(N)(=O)=O)ccc1NC(=O)COc1ccc(Cl)cc1C(=O)c1cc(F)cc(C(F)(F)F)c1	luciferase	RT-V108I Y181C	IIIB		HELA MAGI	EC50	0.0034 µM
CC(=O)O[C@H]1[C@@H]2C(C)=CC=C[C@]2(C)C(=O)C[C@@H]2[C@]1(C)CC[C@@]2(O)C(C)C	luciferase			pseudotyped	293T	EC50	>30 µM
Cc1ccc(-c2nc3ccc(CNCC[C@@]45CC[C@]6(C)[C@H](CC[C@@H]7[C@@]8(C)CC[C@H](OC(=O)[C@H]9C[C@@H](C(=O)O)C9(C)C)C(C)(C)[C@@H]8CC[C@]76C)C4=C(C(C)C)C(=O)C5)cc3[nH]2)cn1	p24 / ELISA		92HT599		MT-2	EC50	<1 µM
Cc1cn([C@H]2C[C@H](N=[N+]=[N-])[C@@H](CO)O2)c(=O)[nH]c1=O	RT activity		BaL		PBMC	EC90	0.0287 µM
CC(C)C1=C2[C@H]3CC[C@@H]4[C@@]5(C)CC[C@H](OC(=O)[C@H]6C[C@@H](C(=O)O)C6(C)C)C(C)(C)[C@@H]5CC[C@@]4(C)[C@]3(C)CC[C@@]2(CC(=O)NC[C@@H]2CCCCN2)CC1=O	p24 / ELISA		92HT599		MT-2	EC50	<1 µM
COc1cc(OC)c(C(=O)OCc2nc3ccccc3nc2C)cc1OC	RT activity		89BZ167		PBMC	EC90	>100 µM
Nc1nc2c(ncn2[C@@H]2OC[C@H](CCP(=O)(O)O)C23CC3)c(=O)[nH]1	RT activity		LAV-1		PBMC	EC90	95 µM
O=C(O)c1cn(-c2ccc(Cn3cncn3)cc2)c2cc(N3CCN(c4ccc(F)cc4F)CC3)ccc2c1=O	syncytia				PBL	EC50	0.13 µM
O=C(O)[C@H]1O[C@@H](Oc2cc3oc(-c4ccc(O)cc4)cc(=O)c3c(O)c2O)[C@H](O)[C@@H](O)[C@@H]1O	p24		74V		MT-2	EC50	253 µM
CSc1ccccc1N1CCN(c2ccc3c(=O)c(C(=O)O)cn(-c4ccc(Cn5cncn5)cc4)c3c2)CC1	syncytia				PBL	EC50	0.08 µM
CCC(C)Sc1nc(C2(c3c(F)cccc3F)CC2)c(C)c(=O)[nH]1	MTT		NL4-3		MT-4	EC50	0.00725 µM
CN1[C@H](c2cccc(Cl)c2)c2ccccc2S1(=O)=O	cytopathic effect / XTT		RF		CEM + CEM-SS	EC50	5.28 µM
CN1C(=O)[C@@H](c2cc(Cl)c(O)c(Cl)c2)NC(=O)[C@@H]2NC(=O)[C@H](c3cc(Cl)c(O)c(Cl)c3)NC(=O)[C@@H](NC(=O)C(=O)c3cc(Cl)c(O)c(Cl)c3)Cc3c[nH]c4cc(ccc34)-c3cc2cc(c3O)Oc2ccc(cc2)C[C@H]1C(=O)N[C@@H](C(=O)O)c1ccc(O)cc1	syncytia		IIIB		MOLT-4	EC50	0.9 µg/mL
CC(C)C1=C2[C@H]3CC[C@@H]4[C@@]5(C)CC[C@H](OC(=O)[C@H]6C[C@@H](C(=O)O)C6(C)C)C(C)(C)[C@@H]5CC[C@@]4(C)[C@]3(C)CC[C@@]2(CC(=O)N[C@H](CO)CNC(=O)c2ccc(Cl)cc2)CC1=O	p24 / ELISA		92HT599		MT-2	EC50	<1 µM
CCO[C@H]1O[C@H](OCC)C2/C1=C\C/C=C(\C)C[C@@H](O)[C@H]2[C@H](C)CCC=C(C)C	luciferase			pseudotyped	293T	EC50	>30 µM
Cc1nc2ccccc2nc1COC(=O)c1ccc2ccccc2c1O	RT activity		BaL		PBMC	EC50	>100 µM
CC(=O)O[C@@H]1C[C@@H](C)[C@@H]2C[C@@H]2C2=C([C@@H]1[C@H](C)CCC=C(C)C)[C@H](O)OC2=O	luciferase			pseudotyped	293T	EC50	>30 µM
CO.COc1ccccc1CCNC(=S)[N-]c1ccccn1.COc1ccccc1CCNC(=S)[N-]c1ccccn1.[O]=[V+2]	p24		IIIB		PBMC	EC50	0.12 µM
CC(C)(C)C(=O)OCOP(=O)(OCOC(=O)C(C)(C)C)OC[C@@H]1CC[C@H](n2ccc(=O)[nH]c2=O)O1	MTT				MT-4	EC50	4.75 µM
CC(C)CN(C[C@@H](O)[C@H](Cc1ccccc1)NC(=O)O[C@H]1CO[C@H]2OCC[C@H]21)S(=O)(=O)c1ccc2[nH]c(O)c(C=NCc3nc4ccccc4[nH]3)c2c1	MTT	L10 V32 V33 M46 M47 L63 A71 V82 I84 mutant			MT-4	EC50	>0.4 µM
COc1cc(C(=O)OCc2nc3ccccc3nc2C)cc(OC)c1OC	RT activity		89BZ167		PBMC	EC50	>100 µM
C=C1[C@H](O)C[C@@H]([C@@](C)(O)CCC=C(C)C)[C@@H](O)[C@@H]2C(C)=CC[C@@H]12	luciferase			pseudotyped	293T	EC50	>30 µM

A second listing of 6 rows from above:

compound	read by	changes	strain or isolate	conditions	cells	endpoint	value
CC(C)C1=C2[C@H]3CC[C@@H]4[C@@]5(C)CC[C@H](OC(=O)[C@H]6C[C@@H](C(=O)O)C6(C)C)C(C)(C)[C@@H]5CC[C@@]4(C)[C@]3(C)CC[C@@]2(CC(=O)NC[C@@H]2CCCCN2)CC1=O	p24 / ELISA		92HT599		MT-2	EC50	<1 µM
CC(C)(C)C(=O)OCOP(=O)(OCOC(=O)C(C)(C)C)OC[C@@H]1CC[C@H](n2ccc(=O)[nH]c2=O)O1	MTT				MT-4	EC50	4.75 µM
O=C(O)c1cn(-c2ccc(Cn3cncn3)cc2)c2cc(N3CCN(c4cccc5ccccc45)CC3)ccc2c1=O	syncytia				PBL	EC50	0.7 µM
C[C@H]1[C@H](O)[C@@H](C)/C=C/C=C/C=C/C=C/C=C/C=C/C=C/[C@H](O[C@@H]2O[C@H](C)[C@@H](O)[C@H](N)[C@@H]2O)C[C@@H]2O[C@](O)(C[C@@H](O)C[C@@H](O)CC[C@H](O)[C@@H](O)C[C@@H](O)CC(=O)O[C@H]1C)C[C@H](O)[C@H]2C(=O)O	p24 / RT activity		93TH073 CLADE E R5 (NSI)		PBMC	EC50	5.5 µM
S=C(NCCc1ccccc1Cl)Nc1ccc(Br)cn1	p24		IIIB		PBMC	EC50	<0.001 µM
Cc1noc(C)c1C(=O)NC(C)(C)C(=O)NC[C@H](O)[C@@]12CC[C@]3(C)[C@H](CC[C@@H]4[C@@]5(C)CC[C@H](OC(=O)[C@H]6C[C@@H](C(=O)O)C6(C)C)C(C)(C)[C@@H]5CC[C@]43C)C1=C(C(C)C)C(=O)C2	p24 / ELISA		92HT599		MT-2	EC50	<1 µM